Source: PubChem BioAssay AID624099 (ICCB-Longwood, 2012)

Screen: 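Host factors E2 relies on to silence an HPV18 LCR reporter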 (primary screen)
System: human C33A cervical carcinoma cells (HPV-negative) stably expressing BPV1 E2 and an HPV18 LCR luciferase reporter
Reagents: siRNA pool against human genes, 40 nM
Time to read-out: 72 h
Read-out: 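HPV18 LCR reporter light per well, converted to plate-wise z-scores that exclude control wells, and averaged over triplicate plates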
Scale: mean z-score and z-score: higher = stronger reporter signal, weaker E2 silencing
Call rule: 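Mean z ≥ 2 together with z ≥ 2 in two or more of the three replicates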
Shown is a random part of about 21,000 deposited reagents. 497 of them (2.4%) were called active. 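Higher z means weaker E2 silencing; only reporter increases were scored, and knock-downs that hurt cell survival may mask genuine repressor factors.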 Entries without a mark were called inactive.

| gene | PubChem SID | mean z-score | z-score, replicate A | z-score, replicate B | z-score, replicate C |
| --- | --- | --- | --- | --- | --- |
| CHD2 | SID134313789 | 0.19 | 0.1 | 0.36 | 0.1 |
| IFNG | SID134323176 | -0.3 | -0.35 | -0.25 | -0.3 |
| PTGES3P1 | SID134325288 | 0.74 | 0.95 | 0.81 | 0.47 |
| TIE1 | SID56478557 | 1.97 | 1.73 | 2.11 | 2.09 |
| KCNMB4 | SID134313109 | -0.29 | -0.45 | 0.11 | -0.53 |
| TIGAR | SID134324277 | 0.8 | 0.74 | 1.08 | 0.57 |
| ZNF578 | SID134319616 | 0.58 | -0.03 | 0.62 | 1.14 |
| IRX3 | SID134325427 | 0.63 | 0.99 | 0.25 | 0.65 |
| KANK3 | SID134329242 | -0.3 | -0.06 | -0.22 | -0.63 |
| FAM151AP1 | SID134325733 | -0.13 | -0.12 | -0.29 | 0.03 |
| SREK1 | SID134320839 | -1.56 | -1.71 | -1.86 | -1.11 |
| ADAM18 | SID134315193 | -1.61 | -1.56 | -1.68 | -1.6 |
| ARHGEF15 | SID134314449 | 0.13 | -0.01 | 0.11 | 0.27 |
| PODXL2 | SID134324400 | 0.22 | -0.28 | 0.63 | 0.32 |
| NXNL2 | SID134320092 | 2.01 (active) | 2.45 | 2.09 | 1.49 |
| ACSL3 | SID134314708 | 1.48 | 1.05 | 1.69 | 1.69 |
| CACNG4 | SID134316783 | 0.75 | 1.03 | 0.7 | 0.52 |
| VMP1 | SID134319916 | 1.68 | 1.3 | 1.67 | 2.08 |
| HMGB2 | SID134316010 | -0.34 | -0.26 | -0.42 | -0.34 |
| RPTOR | SID134310274 | -0.16 | -0.16 | 0.03 | -0.35 |
| SGTB | SID134317972 | -1.4 | -1.45 | -1.55 | -1.2 |
| SCARB2 | SID134316384 | 1.16 | 1.13 | 1.43 | 0.91 |
| SMG9 | SID134324246 | 0.31 | 0.45 | -0.12 | 0.59 |
| TEKT5 | SID134319853 | -0.75 | -0.85 | -0.62 | -0.77 |
| RNF4 | SID134311878 | 0.16 | 0.32 | 0.05 | 0.1 |
| GPKOW | SID134319182 | 2.23 (active) | 2.01 | 2.25 | 2.41 |
| HAUS3 | SID134322017 | -1.17 | -1.53 | -1.73 | -0.23 |
| NAA40 | SID134318596 | -0.15 | -0.6 | 0.02 | 0.14 |
| LOC387872 (retired record) | SID134328342 | -1.02 | -1.18 | -0.66 | -1.22 |
| KRTAP19-3 | SID134322423 | -1 | -0.75 | -1.32 | -0.93 |

Called active (from the list above):
| gene | PubChem SID | mean z-score | z-score, replicate A | z-score, replicate B | z-score, replicate C |
| --- | --- | --- | --- | --- | --- |
| NXNL2 | SID134320092 | 2.01 (active) | 2.45 | 2.09 | 1.49 |
| GPKOW | SID134319182 | 2.23 (active) | 2.01 | 2.25 | 2.41 |

The listing continues:
| gene | PubChem SID | mean z-score | z-score, replicate A | z-score, replicate B | z-score, replicate C |
| --- | --- | --- | --- | --- | --- |
| F10 | SID134311294 | -1.18 | -1 | -1.3 | -1.24 |
| ZBED8 | SID134322114 | 0.57 | 0.36 | 0.38 | 0.97 |
| RAB17 | SID134311808 | 1.98 | 1.85 | 1.95 | 2.14 |
| PTPRVP | SID134325284 | 1.83 | 1.48 | 2.3 | 1.72 |
| SLC45A4 | SID134326393 | -1.11 | -0.89 | -1.18 | -1.25 |
| DPY19L2P2 | SID134322703 | 1.22 | 1.28 | 1.18 | 1.2 |
| C14orf180 | SID134328513 | -1.18 | -1.19 | -1.3 | -1.04 |
| TDRD10 | SID134322506 | -2.13 | -2.4 | -1.89 | -2.11 |
| TIMM22 | SID134311807 | -0.21 | 0.09 | -0.64 | -0.07 |
| ACYP1 | SID134314628 | -0.6 | -0.48 | -0.78 | -0.55 |
| VWA3A | SID134328646 | -1.58 | -1.5 | -1.81 | -1.42 |
| TRMT1L | SID134322857 | 2.51 (active) | 1.93 | 2.61 | 2.98 |
| ATG2A | SID134326600 | 1.02 | 1.04 | 1.15 | 0.89 |
| CIBAR1 | SID134320058 | -0.03 | -0.14 | -0.14 | 0.18 |
| CXCL2 | SID134312814 | -0.75 | -0.72 | -0.78 | -0.75 |
| ZNF585A | SID134320424 | 0.25 | 0.4 | 0.66 | -0.29 |
| COL6A3 | SID134309988 | 1 | 1.11 | 0.79 | 1.11 |
| ZIM3 | SID134312236 | -1.46 | -1.22 | -1.36 | -1.79 |
| RIN3 | SID134318647 | -0.22 | 0.14 | -0.4 | -0.41 |
| LOC388809 (retired record) | SID134329016 | -0.58 | -0.48 | -0.94 | -0.32 |
| C19orf53 | SID134324262 | 0.49 | 0.21 | 0.72 | 0.55 |
| KLHL18 | SID134318682 | -0.93 | -1.48 | -0.63 | -0.68 |
| GCOM1 | SID134320357 | -2.34 | -2.32 | -2.19 | -2.51 |
| MED12L | SID134321818 | 1.11 | 0.91 | 1.31 | 1.12 |
| MARCHF5 | SID134312125 | 0.58 | 0.3 | 0.76 | 0.69 |
| ZNF217 | SID134310701 | 0.2 | 0.01 | 0.18 | 0.41 |
| LOC390121 (retired record) | SID134328337 | -0.18 | -0.11 | -0.12 | -0.31 |
